Measurements from US4810630A, “Use of polyoxyethylene ethers to improve the performance of immunoassays employing peroxidase conjugates” (priority 1987, dated 1989).

Assays:
[1] = system: N. gonorrhea; assay: Dipstick enzyme immunoassay (peroxidase conjugate) for N. gonorrhea with detergent: signal and signal to noise ratio; design: species or system Neisseria gonorrhea; conditions: for Sample Absorbance, Positive (Signal): mean of triplicate
[2] = system: N. gonorrhea; assay: Microtiter plate enzyme immunoassay: optimization of coating antibody concentration with detergent in assay buffer; design: species or system Neisseria gonorrhea
Description: Samples were treated 1.0N NaOH and neutralized with assay buffer as described in Example 1, above. For this assay, 0.100 mL aliquots of the treated, neutralized sample were transferred to the wells of a 96-well microtiter plate which had been previously incubated with an optimized concentration of anti-N. gonorrhea antibody diluted in phosphate buffered saline for 90-120 minutes, drained, then blocked with a solution containing 1.0% bovine serum albumin and 20% sucrose in phosphate buffered saline for 2 hours and dried in vacuo. The aliquots were permitted to incubate in the microtiter plate wells for 90 minutes at room temperature,then drained and washed with phosphate buffered saline containing 0.05% Tween® 20. Horseradish peroxidase conjugated anti-N. gonorrhea, 100 μL of an optimized concentration, was then added to each well and the plate again incubated for 1 hour at room temperature. The plate was then drained and washed as above. A 100 μL portion of the substrate/chromogen solution described in Example 1, above, was then added to each well and incubated for 10 minutes at room temperature. The absorbance of each well was then determined at 630 nm, and corrected for the absorbance at 490 nm.
Antibody specific for Neisseria gonorrhea was used to coat the wells of microtiter plates at varying concentrations in phosphate buffered saline, as described above. A comparison of the optimal antibody concentration in assays using Tween® 20 or Triton® X-100 was made by testing a single concentration of N. gonorrhea in wells previously coated, blocked, and dried as described above. The optimum concentration of antibody is identified as that which yields the maximum signal in the assay with a minimal background response. Table 4 lists the results of such experiments using Tween® 20 and Triton® X-100 as detergents in the assay buffer.

[3] = 0.200% detergent, N. gon. + 0 μL blood
[4] = 0.200% detergent, N. gon. + 50 μL blood
[5] = 0.20% detergent, with 50 μL blood

polyoxyethylene-octylphenoxy [Triton ® X-100]
Signal/Noise ([1]; 0.05% detergent, with 50 μL blood): 1.08
Signal/Noise ([1]; 0.05% detergent, without blood): 41.8
Sample Absorbance, Positive (Signal) ([1]; 0.100% detergent, N. gon. + 0 μL blood): 1.550
Sample Absorbance, Positive (Signal) ([1]; 0.100% detergent, N. gon. + 50 μL blood): 0.390
Signal/Noise ([1]; 0.10% detergent, with 50 μL blood): 4.11
Signal/Noise ([1]; 0.10% detergent, without blood): 77.5
Sample Absorbance, Positive (Signal) [1, 3]: 1.653
Sample Absorbance, Positive (Signal) [1, 4]: 0.498
Signal/Noise [1, 5]: 3.51
Signal/Noise ([1]; 0.20% detergent, without blood): 78.7
Signal/Noise ([1]; 0.25% detergent, with 50 μL blood): 18.5
Signal/Noise ([1]; 0.25% detergent, without blood): > 71
Sample Absorbance, Positive (Signal) ([1]; 0.300% detergent, N. gon. + 0 μL blood): > 1.836
Sample Absorbance, Positive (Signal) ([1]; 0.300% detergent, N. gon. + 50 μL blood): 1.083
Signal/Noise ([1]; 0.30% detergent, with 50 μL blood): 24.1
Signal/Noise ([1]; 0.30% detergent, without blood): > 108
Absorbance Background ([2]; coating antibody 0.20 μg/well): 0.016
Absorbance Background ([2]; coating antibody 0.30 μg/well): 0.016
Absorbance Background ([2]; coating antibody 0.35 μg/well): 0.019
Absorbance Background ([2]; coating antibody 0.40 μg/well): 0.022
Absorbance Background ([2]; coating antibody 0.45 μg/well): 0.021
Absorbance Background ([2]; coating antibody 0.5 μg/well): 0.020
Absorbance Background ([2]; coating antibody 0.60 μg/well): 0.019

polyoxyethylene-sorbitan monolaurate [Tween ® 20]
Sample Absorbance, Positive (Signal) ([1]; 0.075% detergent, N. gon. + 0 μL blood): 0.275
Sample Absorbance, Positive (Signal) ([1]; 0.075% detergent, N. gon. + 50 μL blood): 0.473
Signal/Noise ([1]; 0.075% detergent, with 50 μL blood): 0.94
Signal/Noise ([1]; 0.075% detergent, without blood): 9.48
Sample Absorbance, Positive (Signal) ([1]; 0.125% detergent, N. gon. + 0 μL blood): 0.434
Sample Absorbance, Positive (Signal) ([1]; 0.125% detergent, N. gon. + 50 μL blood): 0.520
Signal/Noise ([1]; 0.125% detergent, with 50 μL blood): 1.02
Signal/Noise ([1]; 0.125% detergent, without blood): 21.7
Sample Absorbance, Positive (Signal) [1, 3]: 0.794
Sample Absorbance, Positive (Signal) [1, 4]: 0.607
Signal/Noise [1, 5]: 2.42
Signal/Noise ([1]; 0.20% detergent, without blood): 24.8
Absorbance Background ([2]; coating antibody 0.05 μg/well): 0.001
Absorbance Background ([2]; coating antibody 0.1 μg/well): 0.005
Absorbance Background ([2]; coating antibody 0.5 μg/well): 0.013
Absorbance Background ([2]; coating antibody 0.8 μg/well): 0.018
Absorbance Background ([2]; coating antibody 1.0 μg/well): 0.050
Absorbance Background ([2]; coating antibody 1.5 μg/well): 0.022
Absorbance Background ([2]; coating antibody 2.0 μg/well): 0.034
